{
  "source": "paper PMC9119628",
  "about": "“Ubiquitination of Ebola virus VP35 at lysine 309 regulates viral transcription and assembly” (2022)",
  "target": "HA-NP (HA-tagged EBOV nucleoprotein), Zaire ebolavirus (EBOV), P18272 1-739",
  "data": [
    {"substance": "untagged EBOV VP35 K309R", "values": [
      {"measurement": "fold binding relative to wt VP35 without OTU", "value": 5, "unit": "fold"}
    ]},
    {"substance": "FLAG-tagged EBOV VP35 K309G", "values": [
      {"measurement": "result", "value": "binds"}
    ]}
  ]
}
